Anti-infective test results gathered from many reports (values: NIAID ChemDB through PubChem).

Common to all: whole-cell or culture tests; species: Mycobacterium tuberculosis

MIC bound comes from a single tested concentration.

structure | cells | changes | read by | dose | read-out | strain | setting | value
Nc1ccc2oc3c(C(=O)O)cccc3c(=O)c2c1 |  |  |  | 32 µg/mL | inhibition | H37Rv |  | inactive
Oc1cc(CNC2CCCCC2)ccc1Oc1ccc(Cl)cc1Cl |  |  | MTT |  | MIC | H36Rv |  | 6.25 µg/mL
NNC(=O)c1ccc(-n2nnc(C(=O)NN)c2C(=O)NN)cc1 |  |  | BACTEC |  | MIC bound | H37Rv |  | >12.5 µg/mL
c1cc2c[n+](c1)CCCCCCCCCCCCCCc1ccc[n+](c1)CCCCCCCCCCCCC2 |  |  |  |  | MIC | H37Rv |  | 8 µg/mL
Cc1cc2c(c(O)c1-c1c(C)cc(O)c3c1C(=O)C=CC3=O)C(=O)C=CC2=O |  |  |  |  | MIC | H37Rv |  | 10 µg/mL
COc1cc(Cc2cnc(N)nc2N)ccc1OCC1CCCCC1 |  |  |  |  | MIC | H37Rv |  | >93.5 µM
COC(=O)c1ccc2c(=O)c3ccccc3oc2c1C(=O)OC |  |  |  | 2 µg/mL | inhibition | H37Rv |  | inactive
Cc1cc(O)c2c(c1)C(=O)C(c1c(C)cc3c(c1O)C(=O)C=CC3=O)=CC2=O |  |  |  |  | MIC | C84 (streptomycin- isoniazid- ethambutol-resistant) |  | 100 µg/mL
C=C/C(C)=C/[C@@]1(C)SC(=O)C(C)=C1O |  |  |  |  | MIC | Erdman |  | 25 µg/mL
Cc1c(CN2CCN(C)CC2)cc(-c2ccc(Cl)cc2)n1-c1ccc(Cl)cc1 |  |  | luminescence |  | MIC90 | H37Rv |  | 18.5 µM
CN(C)CCCN1c2ccccc2Sc2ccc(Cl)cc21 |  |  |  |  | MIC | 23296 |  | 10 µg/mL
COC(=O)c1ccc(NC(=O)C(Cl)(Cl)Cl)cc1S(=O)(=O)NC(=O)Nc1nccc(OC)n1 |  |  |  |  | MIC | H37Rv |  | >80 µg/mL
C[Si](C)(C)c1cc(-c2ccc(Oc3ccc(Cl)cc3Cl)c(O)c2)no1 |  | InhA overexpression | MTT |  | MIC | mc4914 |  | 100 µg/mL
CC(=O)N1C(=O)N(Cl)C(=O)C1(C)c1cccs1 |  |  | BACTEC | 12.5 µg/mL | inhibition | H37Rv |  | 0%
COc1cc(-c2nc(N)nc(N)n2)ccc1OCc1cccc(Cl)c1 |  |  | resazurin |  | MIC | H37Rv |  | 6.26 µM
C=C[C@](C)(O)CC[C@H]1C(=C)CC[C@H]2C(C)(C)[C@@H](O)CC[C@]12C |  |  |  |  | MIC |  |  | >100 µg/mL
Cc1cc(O)c2c(c1)C(=O)CCC2=O |  |  |  |  | MIC | H37Rv |  | 100 µg/mL
COc1c2c(cc3oc(=O)ccc13)OC(C)(C)C=C2 |  |  |  |  | MIC |  |  | >200 µg/mL
Brc1ccc2ncn3c4ccccc4nc3c2c1 |  | INH resistant | resazurin |  | MIC99 | H37Rv |  | 12.5 µg/mL
Cc1cc(C)c2oc3ccccc3c(=O)c2c1[N+](=O)[O-] |  |  |  | 8 µg/mL | inhibition | H37Rv |  | inactive
NNC(=O)c1ccncc1 |  |  |  |  | MIC | Mutation katG315 |  | >3 µg/mL
COc1cc(=O)n(-c2ccccc2)nc1C#N |  |  | BACTEC | 12.5 µg/mL | inhibition | H37Rv |  | 20%
CCCCc1ccc2nc(C)cc(NN)c2c1 | VERO |  |  | 12.5 µg/mL | inhibition | H37Rv |  | 99%
Oc1cc(Cl)ccc1Oc1ccc(Cn2cc(-c3ccccc3)nn2)cc1Cl |  |  | MTT |  | MIC | H37Rv |  | >100 µg/mL
Nc1nc(N)nc(-c2ccc(OCc3ccc(Cl)cc3Cl)cc2)n1 |  |  | resazurin |  | MIC | H37Rv |  | 66.07 µM
C=CC(C)(C)c1c2c(c(O)c3ccc(=O)oc13)C=CC(C)(C)O2 |  |  |  |  | MIC |  |  | 100 µg/mL
Nc1ccc(C(=O)/C=C/c2cc3cc(Br)ccc3nc2Cl)cc1 |  |  | broth dilution | 6.25 µg/mL | inhibition | H37Rv |  | 13%
NNc1ccnc2cc(Cl)cc(Cl)c12 | VERO |  |  |  | MIC | H37Rv |  | >12.5 µg/mL
COc1ccc(Cc2cnc(N)nc2N)cc1OC |  |  |  |  | MIC | H37Rv |  | >123 µM
COc1cc(C=O)cc2c1[nH]c1ccccc12 |  |  |  |  | MIC |  |  | >200 µg/mL
COc1cccc(COc2ccc(-c3nc(N)nc(N)n3)cc2)c1 |  |  | resazurin |  | MIC | H37Rv |  | 38.66 µM
COc1ccc2nc3ccccc3c(Nc3ccc(S(=O)(=O)Nc4nccs4)cc3)c2c1 |  |  |  |  | EC50 | H37Rv |  | <6.25 µg/mL
O=C(/C=C/c1cc2cc(F)ccc2nc1Cl)c1ccc(F)cc1 |  |  | broth dilution | 6.25 µM | inhibition | H37Rv |  | 7%
O=C(c1ccc(Oc2ccc(Cl)cc2Cl)c(O)c1)N1CCOCC1 |  |  | MTT |  | MIC | H37Rv |  | >100 µg/mL
COc1ccc2nc3ccccc3c(Nc3ccc(S(=O)(=O)Nc4cc(C)on4)cc3)c2c1 |  |  |  |  | EC50 | H37Rv |  | <6.25 µg/mL
Cc1cc(O)c2c(c1)C(=O)C=CC2=O |  |  |  |  | MIC | H37Rv |  | 0.5 µg/mL
CC(C)C1=CC2=CC[C@@H]3C(C)(C)CCC[C@@]3(C)[C@@H]2CC1 |  |  |  |  | MIC |  |  | >100 µg/mL
CCCCCCOc1ccc(Cc2cnc(N)nc2N)cc1OC |  |  |  |  | MIC | H37Rv |  | 24.2 µM
O=C(/C=C/c1cc2cc(Br)ccc2nc1Cl)c1cccc([N+](=O)[O-])c1 |  |  | broth dilution | 6.25 µg/mL | inhibition | H37Rv |  | 11%
NNC(=O)c1ccncc1 |  |  | broth dilution |  | MIC | H37Rv | 21 d | 1 µM
CC1COc2c(N3CCN(C)CC3)c(F)cc3c(=O)c(C(=O)O)cn1c23 |  |  |  |  | MIC | H37Rv |  | 1 µg/mL
Cn1c(O)c(O)c(=O)n(C)c1=O |  |  | BACTEC |  | MIC bound | H37Rv |  | >12.5 µg/mL
Cc1ccc2oc3ccccc3c(=O)c2c1[N+](=O)[O-] |  |  |  | 4 µg/mL | inhibition | H37Rv |  | inactive
O=C(c1ccccc1)c1ccc(Oc2ccc(Cl)cc2Cl)c(O)c1 |  |  | MTT |  | MIC | H37Rv |  | 100 µg/mL
COc1ccc2c(N/N=C/c3c(OC)ccc4ccccc34)cc(C)nc2c1 | VERO |  |  |  | MIC | H37Rv |  | 3.13 µg/mL
CC(Oc1ccc(-c2nc(N)nc(N)n2)cc1)C1CCCC1 |  |  | resazurin |  | MIC | H37Rv |  | 245 µM
COc1cc(Cc2cnc(N)nc2N)ccc1OCc1ccccc1 |  |  |  |  | MIC | H37Rv |  | >95 µM
COc1cc(-c2nc(N)nc(N)n2)ccc1OCc1ccc(Cl)cc1 |  |  | resazurin |  | MIC | H37Rv |  | 3.63 µM
Fc1ccc2ncn3c4ccccc4nc3c2c1 |  |  | resazurin |  | MIC99 | H37Rv |  | 6.25 µg/mL
Cc1ccnc(NC(=O)NS(=O)(=O)c2cc(C(=O)OC(C)C)ccc2Br)n1 |  |  |  |  | MIC | H37Rv |  | 10 µg/mL
COc1ccc(COc2cc(-c3nc(N)nc(N)n3)ccc2OC)cc1 |  |  | resazurin |  | MIC | H37Rv |  | 12 µM
Cc1cc(C(=O)NCc2ccc(Oc3ccc(Cl)cc3Cl)c(O)c2)no1 |  |  | MTT |  | MIC | H36Rv |  | 3 µg/mL
CCCc1nc2ccccc2c2nc3ccccc3n12 |  | INH resistant | resazurin |  | MIC99 | H37Rv |  | 0.78 µg/mL
Cc1cc(N/N=C/c2ccc3c(c2)OCO3)c2c(Cl)cc(Cl)cc2n1 | VERO |  |  | 12.5 µg/mL | inhibition | H37Rv |  | 4%
c1cc2c[n+](c1)CCCCCCCCCCCCCCc1ccc[n+](c1)CCCCCCCCCCCC2 |  |  |  |  | MIC | H37Rv |  | 8 µg/mL
O=C(O)c1cc2oc3ccc([N+](=O)[O-])cc3c(=O)c2cc1[N+](=O)[O-] |  |  |  | 32 µg/mL | inhibition | H37Rv |  | inactive
COc1cccc(NC(=S)/C(=C(\[O-])c2ccc([N+](=O)[O-])cc2)[n+]2ccccc2)c1 |  |  | BACTEC | 12.5 µg/mL | inhibition | H37Rv |  | 80%
CCCCc1nc2ccccc2c2nc3cc4ccccc4cc3n12 |  |  | resazurin |  | MIC99 | H37Rv |  | 1.56 µg/mL
c1cc2c[n+](c1)CCCCCCCCCCCCc1ccc[n+](c1)CCCCCCCCCC2 |  |  |  |  | MIC | H37Rv |  | 8 µg/mL
O=C(O)c1ccc2c(=O)c3ccccc3oc2c1C(=O)O |  |  |  | 8 µg/mL | inhibition | H37Rv |  | inactive
CCOC(=O)c1ccc([N+](=O)[O-])cc1S(=O)(=O)NC(=O)Nc1nccc(C)n1 |  |  |  |  | MIC | H37Rv |  | >80 µg/mL
NNC(=O)c1ccncc1 |  |  |  |  | MIC | Isolate M0 |  | 0.031 µg/mL
COc1ccc2nc3cc(Cl)ccc3c(Nc3ccc(S(N)(=O)=O)cc3)c2c1 |  |  |  |  | EC50 | H37Rv |  | <6.25 µg/mL
CC(Oc1ccc(-c2nc(N)nc(N)n2)cc1)c1ccc(Cl)cc1Cl |  |  | resazurin |  | MIC | H37Rv |  | 245 µM
C[C@@H]1CC[C@H]2C(C(=O)O)=CCC[C@@H]2[C@@]1(C)CCc1ccoc1 |  |  |  |  | MIC |  |  | >100 µg/mL
COc1ccc2nc3ccccc3c(Nc3ccc(S(=O)(=O)N=C(N)N)cc3)c2c1 |  |  |  |  | EC50 | H37Rv |  | >6.25 µg/mL
CC(Oc1ccc(-c2nc(N)nc(N)n2)cc1)c1ccc(F)cc1 |  |  | resazurin |  | MIC | H37Rv |  | 67.81 µM
COc1ccc2nc3cc(Cl)ccc3c(Nc3ccc(/C(N)=N/NC(N)=O)cc3)c2c1 |  |  |  |  | EC50 | H37Rv |  | >6.25 µg/mL
CC1COc2c(N3CCN(C)CC3)c(F)cc3c(=O)c(C(=O)O)cn1c23 |  |  |  |  | MIC90 | 25 strains |  | 0.8 µg/mL

Repeating the final 9 entries:

structure	cells	changes	read by	dose	read-out	strain	setting	value
CCOC(=O)c1ccc([N+](=O)[O-])cc1S(=O)(=O)NC(=O)Nc1nccc(C)n1					MIC	H37Rv		>80 µg/mL
NNC(=O)c1ccncc1					MIC	Isolate M0		0.031 µg/mL
COc1ccc2nc3cc(Cl)ccc3c(Nc3ccc(S(N)(=O)=O)cc3)c2c1					EC50	H37Rv		<6.25 µg/mL
CC(Oc1ccc(-c2nc(N)nc(N)n2)cc1)c1ccc(Cl)cc1Cl			resazurin		MIC	H37Rv		245 µM
C[C@@H]1CC[C@H]2C(C(=O)O)=CCC[C@@H]2[C@@]1(C)CCc1ccoc1					MIC			>100 µg/mL
COc1ccc2nc3ccccc3c(Nc3ccc(S(=O)(=O)N=C(N)N)cc3)c2c1					EC50	H37Rv		>6.25 µg/mL
CC(Oc1ccc(-c2nc(N)nc(N)n2)cc1)c1ccc(F)cc1			resazurin		MIC	H37Rv		67.81 µM
COc1ccc2nc3cc(Cl)ccc3c(Nc3ccc(/C(N)=N/NC(N)=O)cc3)c2c1					EC50	H37Rv		>6.25 µg/mL
CC1COc2c(N3CCN(C)CC3)c(F)cc3c(=O)c(C(=O)O)cn1c23					MIC90	25 strains		0.8 µg/mL

A number after MIC or MFC names an inhibition level or a share of isolates. Conditions beyond the fields shown may differ between rows. ECn: concentration that inhibits the pathogen or its effect by n%. Inhibition is in % at the dose shown (toxicity tests: loss of growth or viability). "inactive" is the filed call at that dose; no cut-off is given. Blank or dashed fields: not listed here.